## Sequence variants of PSTVd loop 6 after infection

Data from the supplement of Wu et al. 2024, doi:10.1371/journal.ppat.1012142.

Region: loop 6 of PSTVd (intermediate strain), upper and lower strand joined, each 5' to 3', the first 5 letters being the upper strand, closing pairs included. Wild type: UGACCGCGAG. Varied positions (N): UNNNCGNNNG.

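A pool of all variants was put on leaves of three Nicotiana benthamiana plants. Progeny were sequenced from the inoculated region (day 5), the margin of the inoculated leaf (day 10) and systemic leaves (day 12).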

Numbers give reads per thousand; 0 = not seen among the reads, higher = more abundant.
Each site shows the three plants.
"Pool" is the share in the plasmid pool used as inoculum, on the same scale.
The inoculated region was read from the minus strand, the other sites from the plus strand.
For reference, wild type rose from 20.7 per thousand in the pool to 195, 198, 203 (inoculated region), 629, 591, 734 (leaf margin) and 942, 870, 868 (systemic leaves).

sequence | pool | inoculated region | leaf margin | systemic leaves
UAGACGGUUG | 0.314 | 0.104 0.126 0.0369 | 0 0 0.0232 | 0 0 0
UAGACGUAAG | 0.131 | 0.0869 0.0359 0.111 | 0.0276 0 0.0232 | 0 0 0
UAGACGUACG | 0.209 | 0.104 0.0898 0.0738 | 0 0 0.0232 | 0 0 0
UAGACGUAGG | 0.183 | 0.0869 0.108 0.0369 | 0 0 0.0232 | 0 0 0
UAGACGUAUG | 0.235 | 0.104 0.126 0.0369 | 0.331 0 0.0232 | 0 0 0
UAGACGUCAG | 0.183 | 0.104 0.144 0.111 | 0.0552 0 0 | 0 0 0
UAGACGUCCG | 0.340 | 0.0521 0.0898 0.148 | 0 0 0 | 0 0 0
UAGACGUCGG | 0.288 | 0.139 0.0898 0.0738 | 0 0 0 | 0 0 0
UAGACGUCUG | 0.327 | 0.0869 0.108 0.111 | 0.0276 0 0 | 0 0 0
UAGACGUGAG | 0.157 | 0.0695 0.0898 0.111 | 0 0 0.0232 | 0 0 0
UAGACGUGCG | 0.222 | 0.765 0.701 0.516 | 0.110 0.202 0.139 | 0 0 0
UAGACGUGGG | 0.209 | 0.0869 0.198 0.111 | 0 0 0 | 0 0 0
UAGACGUGUG | 0.288 | 0.174 0.126 0.0922 | 0 0 0 | 0 0 0
UAGACGUUAG | 0.327 | 0.139 0.0539 0.111 | 0 0 0 | 0 0 0
UAGACGUUCG | 0.183 | 0.156 0.0719 0.0922 | 0.0276 0 0.0464 | 0 0 0
UAGACGUUGG | 0.222 | 0.0521 0.0719 0.129 | 0 0 0 | 0 0 0
UAGACGUUUG | 0.405 | 0.0695 0.0539 0.0922 | 0 0 0 | 0 0 0
UAGACUGUCG | 0.0131 | 0 0 0 | 0 0 0 | 0 0 0
UAGACUGUGG | 0.0131 | 0 0 0 | 0 0 0 | 0 0 0
UAGCCCUAGG | 0.0131 | 0 0 0 | 0 0 0 | 0 0 0
UAGCCCUGGG | 0.0131 | 0 0 0 | 0 0 0 | 0 0 0
UAGCCGAAAG | 0.183 | 0.122 0.0539 0.0738 | 0.0276 0.101 0 | 0 0 0
UAGCCGAACG | 0.248 | 0.156 0.0180 0.0553 | 0.0552 0.0252 0 | 0 0 0
UAGCCGAAGG | 0.196 | 0.139 0.0359 0.129 | 0.0276 0 0 | 0 0 0
UAGCCGAAUG | 0.301 | 0.104 0.0359 0.129 | 0.0828 0 0 | 0 0 0
UAGCCGACAG | 0.196 | 0.139 0.0898 0.111 | 0 0 0.0232 | 0 0 0
UAGCCGACCG | 0.248 | 0.174 0.108 0.0553 | 0.0276 0 0 | 0 0 0
UAGCCGACGG | 0.261 | 0.122 0.0898 0.0922 | 0.0276 0 0.0464 | 0.0180 0 0
UAGCCGACUG | 0.275 | 0.122 0.0539 0.111 | 0.0552 0.0757 0 | 0 0 0
UAGCCGAGAG | 0.288 | 0.712 0.701 0.406 | 0.138 1.61 0.0928 | 0 0 0
UAGCCGAGCG | 0.222 | 0.104 0.0898 0.0922 | 0 0.0252 0.0464 | 0 0 0
UAGCCGAGGG | 0.288 | 0.122 0.0719 0.0553 | 0.0828 0.0252 0.0696 | 0 0 0
UAGCCGAGUG | 0.235 | 0.156 0.144 0.148 | 0 0.0252 0 | 0 0 0
UAGCCGAUAG | 0.288 | 0.174 0.0539 0.0184 | 0 0 0.302 | 0 0 0
UAGCCGAUCG | 0.275 | 0.0869 0.108 0.148 | 0.0552 0 0.0232 | 0 0 0
UAGCCGAUGG | 0.614 | 0.139 0.234 0.111 | 0.0276 0.378 0.0696 | 0 0 0
UAGCCGAUUG | 0.183 | 0.139 0.126 0.0738 | 0 0 0 | 0 0 0

Excerpt, the final 2 entries:

sequence,pool,inoculated region,leaf margin,systemic leaves
UAGCCGAUGG,0.614,0.139 0.234 0.111,0.0276 0.378 0.0696,0 0 0
UAGCCGAUUG,0.183,0.139 0.126 0.0738,0 0 0,0 0 0

Samples held 36,220 to 57,551 reads, so the smallest values rest on one or two reads.
Sequences that differ at fixed positions probably stem from PCR or sequencing errors, and defective variants can be carried along by functional ones.